System: LPS (Salmonella typhosa)-induced hypotension in sialadenectomized rats
Experiment: endotoxin (LPS)-induced hypotension, sialadenectomized rats
Format: in vivo, rat
Settings: peptide 100 μg/kg 90 min before LPS
Protocol: The animal model of endotoxic shock used involves intravenous injection of endotoxin (3.5 mg/kg of lipopolysaccharide (LPS) from Salmonella typhosa) into pentobarbital-anaesthetized Sprague-Dawley rats, to produce a fall in mean arterial blood pressure within 3 to 5 minutes. The endotoxin was injected slowly over 1 min. via the jugular vein, and mean arterial blood pressure in mm mercury (MABP) was monitored continuously for 60 min, with the average blood pressure being calculated at 15, 30, 45 and 60 min. Studies were performed on unoperated rats and rats with their submandibular glands removed (sialadenectomized).
The results shown in Table 1 are the averages of three different experiments using the protocol defined above. The data shown represent the average decrease in MABP (dec MABP) and the % Decrease in MABP over the 60 minutes following LPS administration. SGP-S (100μg/kg) and SGP-T (100 μg/kg) were administered 90 min. before LPS. […] Neither SGP-T nor SGP-S, when given prior to the LPS challenge, had appreciable effects on MABP.
The dose-response relationship of the inhibitory effect of SGP-T and SGP-S on endotoxin-induced hypotension was also examined and the results are shown in FIG. 1.

| Substance | MABPbef = mean arterial blood pressure before LPS |
| --- | --- |
| H-SGEGVR-OH [SGP-S, submandibular gland peptide S, SGEGVR] | 119.7 ± 1.8 mm Hg |
| H-TDIFEGG-OH [SGP-T, submandibular gland peptide T, TDIFEGG] | 123.3 ± 4.9 mm Hg |
